From patent US9499821B2, “Preventing or treating viral infection using an inhibitor of the LSD1 protein, a MAO inhibitor or an inhibitor of LSD1 and a MAO inhibitor” (The United States of America, as represented by the …, priority 2008, dated 2016)

System: Adenovirus Type 5
Settings: HeLa cells
Experimental: Viral infection and treatment with TCP: HeLa cells (2×10^6) were treated with control DMSO (D) or 2 mM Tranylcypromine (T) for 5 hours prior to infection with various amounts of Adenovirus Type 5 (1.2×10^8, 2.3×10^8, and 4.5×10^8 NAS IU) for 2 or 4 hours. Equal amounts of infected cell lysates were resolved by SDS-PAGE and Western blotted with anti-E1A, anti-LSD1, and anti-β tubulin antibodies. HEK293 and uninfected HeLa cell lysates represented E1A positive and negative controls.
HeLa cells (2×10^6) were treated with control DMSO (D) or various concentrations of Tranylcypromine (TCP) for 5 hours prior to infection with 2.3×10^9 NAS IU of adenovirus Type 5 for 2 hours. Equal amounts of infected cell lysates were resolved by SDS-PAGE and Western blotted with anti-E1A, anti-β Tubulin, and anti-TBP antibodies.

SMILES: N[C@@H]1C[C@H]1c1ccccc1 (racemic) [TCP, Tranylcypromine]
- levels of the controls LSD1 and β-Tubulin (2 mM): no significant impact
- levels of the control TBP and β-Tubulin proteins (various concentrations of TCP): no significant impact
